Data reported in PMC3983159.

Tested on: Nc1ncnc2c1ncn2[C@@H]1O[C@H](COP(=O)(O)OP(=O)(O)OP(=O)(O)O)[C@@H](O)[C@H]1O
Experiment: purified protein
Details: 1-5 mM ATP, 4 mM MgCl2, 100 mM Tris-HCl pH 8.0, 37 °C

Substance | Km [µM]
EscN-Myc-His6 (Escherichia coli O127:H6 str. E2348/69) | 730 ± 10
SsaN-Myc-His6 (Salmonella enterica subsp. enterica serovar Typhimurium str. LT2) | 810 ± 20
